From patent US11375715B2, “Long lasting disinfectant cleaning composition comprising an amne oxide/nonionic surfactant mixture” (RHODIA OPERATIONS, priority 2019, dated 2022)

Assay: ASTM D4488 wallboard cleaning test

Which results are given for “Tristyrylphenol ethoxylate - 8EO [TSP-8EO]”?
effect on cleaning performance of adding nonionic surfactant to Formulation A (added to Formulation A at 0.5% actives, FIG. 7): dramatic improvement in cleaning performance; effect on cleaning performance of adding surfactant to Formulation A (different levels added to Formulation A, pH 4.5, FIG. 4): drastically improves cleaning at levels above 0.5%
